Values joined by “and” are separate entries in the source; they are usually repeats but may differ in a detail not shown here. Equal values may be shown once.
Test: Body and organ weights in the murine VL model
Assay type: in vivo, BALB/c mice
Conditions: 3 mg/kg p.o. qd, individual mice
Experimental: To determine the anti-leishmanial activity of a representative oral AmpB formulation, the following studies were completed. BALB/c mice were intravenously infected with 5×10^7 Leishmania donovani LV82 promastigotes (obtained by culturing amastigotes taken directly from the spleen of an infected hamster) seven days prior to treatment. Following the seven days, mice were either administered five daily doses of miltefosine at 3 mg/kg po, or Formulation A at 2.5, 5, and 10 mg/kg po bid for five consecutive days or 20 mg/kg po qd for five consecutive days. Appropriate vehicle controls were also assessed. Animals were sacrificed 14 days post infection and Leishman-Donovan units (LDU) were assessed in livers of mice post mortem via microscopic enumeration of Giemsa-stained liver smears

SMILES: CCCCCCCCCCCCCCCCOP(=O)([O-])OCC[N+](C)(C)C [Miltefosine, miltefosine]
- Liver weight: 1.1060 g and 1.0114 g and 1.1541 g and 1.0693 g
- Spleen Weight: 0.1152 g and 0.1265 g and 0.1216 g and 0.1053 g
